Assay [1] deals with Envelope glycoprotein (E) of antigenic variant DENV-4 v4 (Leu for Pro at position 176 in E) (dengue virus type 4) (UniProt P09866). The assay is described as follows: equilibrium ELISA; ELISA Kd against that for parental DENV-4 (C6/36). Background: An ELISA detects its analyte on a solid surface through an enzyme-linked reagent.
Assay [2] addresses Envelope glycoprotein (E) of antigenic variant DENV-4 v3 (Glu for Lys at position 174 in E) (dengue virus type 4) (UniProt P09866). The assay is described as follows: equilibrium ELISA; ELISA Kd against that for parental DENV-4 (FRhL).

This passage reports Fold Reduction results from patent publication US20100247549A1.

For the substance “Humanized IgG 5H2 ΔD (IgG1 5H2 with a 9-amino-acid deletion, positions 231-239, at the N-terminus of the CH2 domain) (antibody)”, the Fold Reduction was 2.29 fold in assay [1] and over 100 fold in assay [2].
